{"source": "PubChem BioAssay AID504761 (Drosophila RNAi Screening Center, 2011)", "assay": "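Fly genes whose silencing reduces dengue virus type 2 infection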 (primary screen)", "system": "D.Mel-2 cells from Drosophila", "knock-down reagent": "long dsRNA against Drosophila genes", "conditions": "infection with dengue virus type 2; dose and infection time not stated", "measured": "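Per well on two replicate plates, imaging gave the percent of cells positive for viral envelope protein, ranked by infection, and a nuclear count of cells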", "direction": "infection score: higher = more virus-infected cells", "active means": "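Very low infection ranking in both replicate wells (chance probability at most 0.065), then a retest showing infection dropped 1.5-fold or more at p below 0.05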", "meaning of the calls": "active = confirmed: knock-down lowers infection; inactive = not picked or not confirmed", "note": "In all, the deposit lists about 22,000 reagents; shown is a random part of those with a known target gene and a result. In the full data, 116 (0.52%) got an active call. 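Calls depend on retest data that are not deposited; infection was ranked per plate without normalising between plates; the unit of the infection score is not given.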 A number with no mark means an inactive call. Reagents against one gene are numbered here. Not all columns of the deposit are shown. Not given: the amount of reagent, the time to read-out."}
{"gene knocked down": "CG13919", "dsRNA no.": 1, "infection score, replicate 1": 3.04}
{"gene knocked down": "cac (cacophony)", "dsRNA no.": 1, "infection score, replicate 1": 3.12}
{"gene knocked down": "cac (cacophony)", "dsRNA no.": 2, "infection score, replicate 1": 0.73}
{"gene knocked down": "stv (starvin)", "dsRNA no.": 1, "infection score, replicate 1": 1.13}
{"gene knocked down": "stv (starvin)", "dsRNA no.": 2, "infection score, replicate 1": 4.35}
{"gene knocked down": "Arp2 (Actin-related protein 2)", "dsRNA no.": 1, "infection score, replicate 1": 10.9}
{"gene knocked down": "mnd (minidiscs)", "dsRNA no.": 1, "infection score, replicate 1": 4.47}
{"gene knocked down": "PNPase (Polynucleotide phosphorylase)", "dsRNA no.": 1, "infection score, replicate 1": 2.04}
{"gene knocked down": "CG13063", "dsRNA no.": 1, "infection score, replicate 1": 2.09}
{"gene knocked down": "CG13063", "dsRNA no.": 2, "infection score, replicate 1": 20.2}
{"gene knocked down": "CG13309", "dsRNA no.": 1, "infection score, replicate 1": 1.07}
{"gene knocked down": "fh (frataxin)", "dsRNA no.": 1, "infection score, replicate 1": 1.73}
{"gene knocked down": "Obp56a (Odorant-binding protein 56a)", "dsRNA no.": 1, "infection score, replicate 1": 6.03}
{"gene knocked down": "Obp56a (Odorant-binding protein 56a)", "dsRNA no.": 2, "infection score, replicate 1": 2}
{"gene knocked down": "Sp1", "dsRNA no.": 1, "infection score, replicate 1": 2.61}
{"gene knocked down": "Sp1", "dsRNA no.": 2, "infection score, replicate 1": 3.81}
{"gene knocked down": "Sp1", "dsRNA no.": 3, "infection score, replicate 1": 0.58}
{"gene knocked down": "CG1024", "dsRNA no.": 1, "infection score, replicate 1": 3.88}
{"gene knocked down": "CG15922", "dsRNA no.": 1, "infection score, replicate 1": 1.01}
{"gene knocked down": "pgc (polar granule component)", "dsRNA no.": 1, "infection score, replicate 1": 16.8}
{"gene knocked down": "thw (thawb)", "dsRNA no.": 1, "infection score, replicate 1": 6.9}
{"gene knocked down": "CG17929", "dsRNA no.": 1, "infection score, replicate 1": 1.81}
{"gene knocked down": "Sec10 (Secretory 10)", "dsRNA no.": 1, "infection score, replicate 1": 2.02}
{"gene knocked down": "Sec10 (Secretory 10)", "dsRNA no.": 2, "infection score, replicate 1": 17.8}
{"gene knocked down": "RpS30 (Ribosomal protein S30)", "dsRNA no.": 1, "infection score, replicate 1": 6.95}
{"gene knocked down": "RpS30 (Ribosomal protein S30)", "dsRNA no.": 2, "infection score, replicate 1": 4.65}
{"gene knocked down": "CG13492", "dsRNA no.": 1, "infection score, replicate 1": 4.49}

Look-ups from the list:
Result for Sp1 #1 under “infection score, replicate 1”: 2.61
thw (thawb), infection score, replicate 1 → 6.9
